Sequences and labels used below:
B1: HIV-1 Env, reservoir clone (protein)
chain: MRVKGIMRNYQHLWRWGIMLLGMLMICNATEKLWVTVYYGVPVWKEATTTLFCASDAKAYDTEAHNVWATHACVPTDPDPQEVVLENVTEDFNAWKNDMVEQMHEDIISLWDQSLKPCVKLTPLCVTLECTDNVNCTGTNCTGVKDTNDTNNANLIMEKGEMKNCSFNITTNIRDKVDRQYALFYKLDIVQIEDNNTNTYRLISCNTSVITQACPKVSFEPIPIHYCAPAGFAILKCKDKGFSGKGTCKNVSTVQCTHGIRPVVSTQLLLNGSLAEKEVVIRSNNLTNNAETIIVQLNKTIQINCTRPNNNTRKGIHIGPGRAFYATGEIIGDIRQAHCNISGKDWNEALKWIAGKLKEKFNKTIVFRPPIRGGDPEIVMHTFNCGGEFFYCNTTKLFNSTHNGNDTHDTAINNTTITLPCKIKQIINMWQEVGKAMYAPPIRGNISCSSNITGLLLIRDGGNTSTNETFRPGGGNMKDNWRSELYKYKVVKIEPLGVAPTKAKRRVVQREKRAMGLGALFLGFLGAAGSTMGAASVTLTVQARQLLSGIVQQQNNLLRAIEAQQHMLQLTVWGIKQLQARVLAVERYLKDQQLLGIWGCSGKLICTTSVPWNTSWSNKSYHQIWENMTWMQWEKEIDNYTGIIYTLIEESQTQQEMNEKELLELDKWASLWNWFSITNWLWYIRIFIMIVGGLIGLRIVFAVLSIVKRVRQGYSPLSFQTLFPAQRGPDRPGGIEEEGGEQDRGRSIRLVDGFLALFWDDLRSLCLFSYHRLRDLLLIVAWIVELLGRRGWEILKYWWSLLQYWSQELKNSAISLLNTTAIIVGEGTDRVIETAQRVVRAFLHIPRRIRQGFERALQ
B2: HIV-1 Env, reservoir clone (protein)
chain: B1 chain with N811K
B3: HIV-1 Env, reservoir clone (protein)
chain: B1 chain with S769N

Substitutions are numbered along the chain they refer to. The list shows a part of the results. Env chains of viruses from a treatment-interruption trial, translated from the printed DNA. IC50 / IC80 of two broadly neutralizing antibodies; lower = more sensitive virus; >50 µg/ml means not reached and <0.001 µg/ml is below the lowest dose. No active / inactive call.

One assay has as its target antibody 10-1074. In words: neutralization IC50; higher = virus less sensitive to the antibody. The procedure: (§1)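 Pseudovirus bearing the Env chain mixed with antibody, from 50 µg/ml in fivefold dilutions, on TZM-bl reporter cells, in duplicate.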
On to B1, for which the “neutralization IC50” value worked out at 0.097 µg/mL.

For the molecule B2, the “neutralization IC50” value is 0.076 µg/mL.

For B3, the “neutralization IC50” value amounted to 0.119 µg/mL.

The target in a further assay is antibody 3BNC117. The assay is described as above. The procedure:
as §1
As to B1, the “neutralization IC50” value is 0.053 µg/mL.

With B2, the “neutralization IC50” value was determined as 0.066 µg/mL.

On to B3, for which the “neutralization IC50” value amounted to 0.079 µg/mL.

The target of the next assay is antibody 10-1074. In words: neutralization IC80; higher = virus less sensitive to the antibody. Here is the method: as §1
Turning to B1, the “neutralization IC80” value was determined as 0.372 µg/mL.

Take B2: the “neutralization IC80” value is 0.306 µg/mL.

For B3, the “neutralization IC80” value was determined as 0.419 µg/mL.

In another assay the target is antibody 3BNC117. Described as above. The procedure:
as §1
Consider B1, for which the “neutralization IC80” value worked out at 0.209 µg/mL.

For the molecule B2, the “neutralization IC80” value came out at 0.246 µg/mL.

On to B3, for which the “neutralization IC80” value came out at 0.306 µg/mL.
